Results of unrelated studies side by side (data: NIAID ChemDB).

Shared fields: growth or infection tests; organism: HIV-1

Lines come from different laboratories, so protocols vary. ECn is the concentration giving n% inhibition of infection, replication or growth. An empty or dashed field is not shown.

structure,conditions,endpoint,strain or isolate,cells,mutations,read by,value
CCCCCCOC(=O)C(C)(C)NP(=O)(CO[C@H](C)Cn1cnc2c(N)ncnc21)N[C@@H](CC(=O)OC(C)C)C(C)C,50% human serum,EC50,-,MT4-GFP,-,fluorescence,58.5 µM
CNC(=O)N(CCC[C@H](NC(C)=O)C(=O)NCc1ccccc1)Cc1ccccc1,-,EC50,IIIB,CEM-IW + CEM,-,cytopathic effect / XTT,>100 µM
CC#Cc1cn([C@@H]2O[C@H](COP(=O)(N[C@@H](C)C(=O)OC)Oc3ccccc3)[C@@H](O)[C@@H]2O)c(=O)[nH]c1=O,-,EC50,HXB2,HeLa,-,plaque count,>50 µM
CCOCn1c(Cc2ccccc2)c(C(C)C)c(=O)[nH]c1=O,-,EC50,IIIB,PBMC,-,MTT / p24,0.004 µM
COc1ccc(S(=O)(=O)N(CC(C)C)C[C@@H](O)CCN(CC2CCCC2)S(=O)(=O)C2SC(NC(C)=O)=NC2C)cc1,-,EC90,IIIB,CEM,-,p24,1 µM
N#CC(=C1CCN(C(=O)C(=O)c2c[nH]c3c(-n4nccn4)ccnc23)CC1)c1ccccc1,-,EC50,-,HeLa,-,luciferase,<1 µM
CC#Cc1cn([C@@H]2O[C@H](COP(=O)(OCC(Cl)(Cl)Cl)Oc3ccccc3)[C@@H](O)[C@@H]2O)c(=O)[nH]c1=O,-,EC50,HXB2,HeLa,-,plaque count,>50 µM
CCCCOC(=O)[C@@H](C)NP(=O)(CO[C@H](C)Cn1cnc2c(N)ncnc21)NC[C@H](C)C(=O)OC(C)C,10% human serum,EC50,-,MT4-GFP,-,fluorescence,11.7 µM
O=C(O)c1cn(C2CC2)c2c(OC(F)F)c(N3CCN(Cc4ccccc4)CC3)c(F)cc2c1=O,-,EC50,IIIB,MOLT-4/HIV-1(IIIB) + MOLT-4,-,p24,>23 µM
CCCN(CCCC[C@H](NC(C)=O)C(=O)NCc1ccccc1)C(=O)N(CCCl)N=O,-,EC50,IIIB,CEM-IW + CEM,-,cytopathic effect / XTT,>100 µM
CC(C)OC(=O)[C@H](C)NP(=O)(CO[C@H](C)Cn1cnc2c(N)ncnc21)NC[C@H](C)C(=O)OC(C)C,50% human serum,EC50,-,MT4-GFP,-,fluorescence,59.3 µM
CC1=C(C(=O)OCc2ccccc2)C(c2ccc(C)cc2)NC(=O)N1,-,EC50,-,HEK293T,-,p24 / ELISA,>100 µM
COc1ncc(OC)c2c(C(=O)C(=O)N3CCC(=C(C)c4ccccc4)CC3)c[nH]c12,-,EC50,-,HeLa,-,luciferase,<1 µM
CCCN(CCC[C@H](NC(C)=O)C(=O)NCc1ccccc1)C(=O)N(C)N=O,-,EC50,IIIB,CEM-IW + CEM,-,cytopathic effect / XTT,>100 µM
COc1ncc(OC)c2c(C(=O)C(=O)N3CCC(=C(C#N)c4cncs4)CC3)c[nH]c12,-,EC50,-,HeLa,-,luciferase,<1 µM
Cc1nnc(N)nc1/C=C/c1ccc(Cl)cc1Cl,-,EC50,-,CEM,-,cytopathic effect / XTT,>6.33 µM
CCCOCn1c(C(F)c2cccc(C#N)c2)c(CC)c(=O)[nH]c1=O,-,EC50,IIIB,MT-4,Y181C,MTT,3 µM
O=C(c1ccccc1)N(CCc1ccccc1)C[C@H](O)CN(CC1CCCC1)S(=O)(=O)C1CS(=O)(=O)CC1O,-,EC50,IIIB,CEM,-,p24,<1 µM
CC(=O)N[C@@H](CCCCNC(=O)N(CCCl)N=O)C(=O)NCc1ccccc1,-,EC50,IIIB,CEM-IW + CEM,-,cytopathic effect / XTT,>100 µM
CSCSc1nc(Cc2ccccc2)c(C)c(=O)[nH]1,-,EC50,IIIB,PBMC,-,MTT / p24,3.4 µM
O=C(c1ccccc1)N(CCc1ccccc1)C[C@H](O)CN(CC1CCCC1)S(=O)(=O)c1cccnc1,-,EC50,IIIB,CEM,-,p24,<1 µM
COc1cnc(-n2cnc(C)n2)c2[nH]cc(C(=O)C(=O)N3CCC(=C(c4ccccc4)c4nnc(-c5ccccc5)o4)CC3)c12,-,EC50,-,HeLa,-,luciferase,>0.5 µM
CCCCOP(=O)(OCCCC)OC[C@H]1O[C@@H](n2cc(C)c(=O)[nH]c2=O)C[C@@H]1OS(C)(=O)=O,-,EC50,RF,C8166,-,p24,>100 µM
COc1cnc(-c2cnccn2)c2[nH]cc(C(=O)C(=O)N3CCC(=C(c4ccccc4)c4csc(C)n4)CC3)c12,-,EC50,-,HeLa,-,luciferase,<1 µM
CC(=O)N1C(=O)CC(=O)N(c2nnc(C)c(/C=C/c3ccc(N(C)C)cc3)n2)C1=S,-,EC50,-,CEM,-,cytopathic effect / XTT,>0.317 µM
CC(C)CN(CC(O)CCN1C[C@H]2CCCC[C@H]2C[C@H]1C(=O)NC(C)(C)C)S(=O)(=O)c1ccccc1,-,EC50,IIIB,CEM,-,p24,<1 µM
CCOCn1c(Cc2ccccc2)c(C(C)C)c(=O)[nH]c1=O,-,EC50,IIIB,MT-4,K103N + Y181C,MTT,>100 µM
CC#Cc1cn([C@@H]2O[C@H](COP(=O)(NCCCCCCCCCCCC)Oc3ccccc3)[C@@H](O)[C@@H]2O)c(=O)[nH]c1=O,-,EC50,HXB2,HeLa,-,plaque count,>50 µM
Cc1nnc(N)nc1/C=C/c1c(O)ccc2ccccc12,-,EC50,-,CEM,-,cytopathic effect / XTT,>20 µM
COc1ccc(S(=O)(=O)N(CC(C)C)C(=O)C(=O)C(=O)[C@@H](Cc2ccccc2)NC(=O)OC2COCOC2)cc1,-,EC50,IIIB,CEM,-,p24,<1 µM
CCCOP(=O)(OCCC)OC[C@H]1O[C@@H](n2cc(C)c(=O)[nH]c2=O)C[C@@H]1N=[N+]=[N-],-,EC50,RF,C8166,-,p24,>100 µM
CC1=C(C(=O)OCc2ccccc2)C(c2ccccc2O)NC(=O)N1,-,EC50,-,HEK293T,-,p24 / ELISA,>100 µM
Cc1nnc(N)nc1/C=C/c1cccs1,-,EC50,-,CEM,-,cytopathic effect / XTT,>0.00635 µM
CCc1c(C(=O)c2cccc(C#N)c2)n(Cc2cccc(C#N)c2)c(=O)[nH]c1=O,-,EC50,IIIB,MT-4,Y181C,MTT,46 µM
CC#Cc1cn([C@@H]2O[C@H](COP(=O)(N[C@H](C(=O)OC)C(C)C)Oc3ccccc3)[C@@H](O)[C@@H]2O)c(=O)[nH]c1=O,-,EC50,HXB2,HeLa,-,plaque count,>100 µM
COc1ccc(S(=O)(=O)N(CC(C)C)C[C@@H](O)CCN(CC2CCCC2)S(=O)(=O)Cc2nc[nH]c2C)cc1,-,EC50,IIIB,CEM,-,p24,<1 µM
CCCCCCOC(=O)C(C)(C)NP(=O)(CO[C@H](C)Cn1cnc2c(N)ncnc21)N[C@H](CC(=O)OC(C)C)C(C)C,50% human serum,EC50,-,MT4-GFP,-,fluorescence,5.7 µM
CCCOP(=O)(OCCC)OC[C@H]1O[C@@H](n2cc(C)c(=O)[nH]c2=O)C[C@@H]1OS(C)(=O)=O,-,EC50,RF,C8166,-,p24,>100 µM
CC(=O)N[C@@H](CCCNC(=O)OCc1ccccc1)C(=O)NCc1ccccc1,-,EC50,IIIB,CEM-IW + CEM,-,cytopathic effect / XTT,>100 µM
CCCCCOC(=O)C(C)(C)NP(=O)(CO[C@H](C)Cn1cnc2c(N)ncnc21)N[C@@H](C)CC(=O)OC(C)C,50% human serum,EC50,-,MT4-GFP,-,fluorescence,116.3 µM
COc1cnc(-c2cnccn2)c2[nH]cc(C(=O)C(=O)N3CCC(=C(Br)c4ccccc4)CC3)c12,-,EC50,-,HeLa,-,luciferase,<1 µM
Cc1cn([C@H]2C[C@H](N=[N+]=[N-])[C@@H](CO)O2)c(=O)[nH]c1=O,-,EC50,IIIB,MT-4,K103N,MTT,0.019 µM
CCCN(CCC[C@H](NC(C)=O)C(=O)NCc1ccccc1)C(=O)NC,-,EC50,IIIB,CEM-IW + CEM,-,cytopathic effect / XTT,>100 µM
CC#Cc1cn([C@@H]2O[C@H](COP(=O)(O)Oc3ccc(F)cc3)[C@@H](O)[C@@H]2O)c(=O)[nH]c1=O,-,EC50,HXB2,HeLa,-,plaque count,>50 µM
Cc1ccnc2c1NC(=O)c1cccnc1N2C1CC1,-,EC50,IIIB,MT-4,E138K,MTT,0.16 µM
CC#Cc1cn([C@@H]2O[C@H](COP(=O)(O)OCC(Cl)(Cl)Cl)[C@@H](O)[C@@H]2O)c(=O)[nH]c1=O,-,EC50,HXB2,HeLa,-,plaque count,>50 µM
CCCCOP(=O)(OCCCC)OC[C@H]1O[C@@H](n2cc(C)c(=O)[nH]c2=O)C[C@@H]1O,-,EC50,RF,C8166,-,p24,>100 µM
Nc1nc2c(ncn2[C@H]2C[C@H](F)[C@@H](CO)O2)c(=O)[nH]1,-,EC50,IIIB,MT-4,-,cytopathic effect,2.4 µM
Nc1nc2c(ncn2COCCO)c(=O)[nH]1,-,EC50,HXB2,HeLa,-,plaque count,>100 µM

Repeating the first 7 entries:

| structure | conditions | endpoint | strain or isolate | cells | mutations | read by | value |
|---|---|---|---|---|---|---|---|
| CCCCCCOC(=O)C(C)(C)NP(=O)(CO[C@H](C)Cn1cnc2c(N)ncnc21)N[C@@H](CC(=O)OC(C)C)C(C)C | 50% human serum | EC50 | - | MT4-GFP | - | fluorescence | 58.5 µM |
| CNC(=O)N(CCC[C@H](NC(C)=O)C(=O)NCc1ccccc1)Cc1ccccc1 | - | EC50 | IIIB | CEM-IW + CEM | - | cytopathic effect / XTT | >100 µM |
| CC#Cc1cn([C@@H]2O[C@H](COP(=O)(N[C@@H](C)C(=O)OC)Oc3ccccc3)[C@@H](O)[C@@H]2O)c(=O)[nH]c1=O | - | EC50 | HXB2 | HeLa | - | plaque count | >50 µM |
| CCOCn1c(Cc2ccccc2)c(C(C)C)c(=O)[nH]c1=O | - | EC50 | IIIB | PBMC | - | MTT / p24 | 0.004 µM |
| COc1ccc(S(=O)(=O)N(CC(C)C)C[C@@H](O)CCN(CC2CCCC2)S(=O)(=O)C2SC(NC(C)=O)=NC2C)cc1 | - | EC90 | IIIB | CEM | - | p24 | 1 µM |
| N#CC(=C1CCN(C(=O)C(=O)c2c[nH]c3c(-n4nccn4)ccnc23)CC1)c1ccccc1 | - | EC50 | - | HeLa | - | luciferase | <1 µM |
| CC#Cc1cn([C@@H]2O[C@H](COP(=O)(OCC(Cl)(Cl)Cl)Oc3ccccc3)[C@@H](O)[C@@H]2O)c(=O)[nH]c1=O | - | EC50 | HXB2 | HeLa | - | plaque count | >50 µM |